From ChEMBL document CHEMBL3988442, “University of Dundee, Small-Polar-MMV Screening Library” (2021).

Each number is a percent effect as filed. How 0% and 100% were set is not recorded. Most values in the screen are low, and negative values occur. The entries come from a sample that favours strong results. A dash means the value is not listed here; it may have been measured.

A: 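Phenotypic screen: M. tuberculosis growth, glucose 7H9 medium, 3 days; the read-out is not stated. Concentration: 500 µM. Higher reads as more growth inhibition (inferred: compounds with an IC50 in retests scored well above the rest). Of about 18,000 compounds tested this way, about 1,400 (7.9%) reached 50% or more in at least one test.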
B: 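Whole-cell growth test on Mycobacterium tuberculosis, read after 4 days in a medium based on cholesterol and the lipid DPPC; the read-out is not stated. Tested at 500 µM. Higher reads as more growth inhibition (inferred: compounds with an IC50 in retests scored well above the rest). Of about 18,000 compounds tested this way, about 900 (5%) reached 50% or more in at least one test.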

SMILES | A | B
CN(Cc1ccon1)C(=O)C1COc2ccccc2C1 (stereo not given) | 40.56 | -
NS(=O)(=O)c1ccc(OCC(F)(F)F)cc1 | 18.59 | -
CCn1nccc1C(=O)N1C[C@@H](CO)[C@H](N(C)C)C1 | - | -17.19
O=c1[nH]c(-c2ccccn2)nc2c1CCCN2 | 35.01 | -
CC1CCCCN1CCS(=O)(=O)CCC(N)=O (stereo not given) | 36.29 | -
COCC1(C(=O)NCCCN(C)c2ccccc2)CC1 | 48.34 | -
COCCCNCc1ccc2c(c1)n(C)c(=O)n2C | - | 2.643
NCc1ccc(-n2ccnc2)cc1 | - | -12.1
CCN(CC)C(=O)Nc1c(C)nn(C)c1OC | - | -4.313
CS(=O)(=O)c1ccc(C2CNCCO2)cc1 (stereo not given) | -5.144 | -
CC1CN(C)CCC1=O (stereo not given) | - | -28.2
CN(CCCNS(N)(=O)=O)c1ccccc1F | 33.05 | 15.46
COCCN1CCCN(C(=O)c2cc(C)no2)CC1 | 7.478 | -
O=C1CC2(CCCNC2)CN1 (stereo not given) | 6.728 | -
Cc1nc(NC2CC2)sc1C(=O)NCc1ccncc1 | 16.5 | 17.5
O=C(c1ccccc1)N1CCCNCC1 | 2.937 | -
Cc1nc(CNC(=O)c2ccccc2)no1 | 5.577 | -2.554
CCC1(C(=O)Nc2ccc3[nH]ncc3c2)CCNC1 (stereo not given) | - | 6.08
CS(=O)(=O)CCN1CCC(Oc2ccc(F)cc2)CC1 | 77.22 | 61.03
CC1(C)CN(C(=O)c2cscn2)CCS1(=O)=O | 4.313 | -
CCN(CC)C(=O)Nc1cc(C(N)=O)ccc1C | 16.27 | -
CCNC(=O)NCCCOCC1CCOC1 (stereo not given) | - | -7.578
CCc1nc(CNc2ccc(C#N)nc2)cs1 | 66.74 | 64.56
COc1ccc(NC(C(N)=O)c2ccc(Br)cc2)cn1 (stereo not given) | 53.44 | 54.62
COCCC1CN(C(=O)c2ccc(C)c(F)c2)CCO1 (stereo not given) | 59.06 | 69.73
Cn1c(CN2CCN(CCO)CC2)cc(=O)n(C)c1=O | -6.675 | -
N#CCCN(CC1CC1)C(=O)c1cc(I)c[nH]1 | 21.08 | -4.97
NC(=O)COc1ccc(CNCCn2cccn2)cc1 | 0.6594 | -
O=C(CSCc1ccncc1)NCc1c[nH]nn1 | - | 1.884
NS(=O)(=O)NC(c1cc(F)ccc1F)C1CC1 (stereo not given) | 11.53 | -
N#Cc1cccc(S(=O)(=O)NCCc2ccccn2)c1 | 30.28 | -
Cc1ccc2c(c1)C(N)C(=O)N2C (stereo not given) | 7.29 | -12.2
CCC(C)(C)C(=O)NC1CNC[C@@H]1OC (stereo not given in full) | -1.745 | -
CCCOC1CCCN(C(=O)CSc2nc(C)n[nH]2)C1 (stereo not given) | 13.26 | -
NCC(O)CS(=O)(=O)c1cccs1 (stereo not given) | - | 10.8
COc1ncccc1C(=O)NCC(=O)N1CCCC1 | 8.178 | -
CCCOCCNC(=O)c1cc(C(F)(F)F)n[nH]1 | 74.57 | 73.14
NCC1CN(C2CC2)C(=O)O1 (stereo not given) | - | -18.24
CCN(C(=O)c1cccnc1SC)[C@H]1COC[C@@H]1O | - | 7.571
COCC(=O)N1CCC2(CC1)OCCO2 | 50.57 | -
CC(C)[C@H]1CN(S(=O)(=O)c2ccccc2F)C[C@@H]1N | - | 26.97
Cc1cc(CN(C)c2ncccc2F)no1 | 4.786 | -
CC(=O)N1CCCN(S(=O)(=O)N(C)C(C)C)CC1 | 3.17 | -
COc1ccc(CC(C)N)c(OC)c1OC (stereo not given) | 47 | 10.36
CNCCOc1cccc(C)c1 | - | 15.74
COc1cccc(C(N)C2CC2)n1 (stereo not given) | -4.176 | -
CC(C)c1nc(Cn2ncn(C)c2=O)cs1 | 3.926 | -2.57
NCC1CCN(C2CCCC2)C1 (stereo not given) | -4.579 | 2.928
Cc1noc(C)c1C(=O)N1CCOc2ccccc21 | 23.46 | -
CN(C(=O)c1ccc(S(C)(=O)=O)cc1)c1ccccc1 | -4.329 | -7.156

Once more, the final 5:

{"smiles": "COc1cccc(C(N)C2CC2)n1", "stereo": "stereo not given", "A": -4.176}
{"smiles": "CC(C)c1nc(Cn2ncn(C)c2=O)cs1", "A": 3.926, "B": -2.57}
{"smiles": "NCC1CCN(C2CCCC2)C1", "stereo": "stereo not given", "A": -4.579, "B": 2.928}
{"smiles": "Cc1noc(C)c1C(=O)N1CCOc2ccccc21", "A": 23.46}
{"smiles": "CN(C(=O)c1ccc(S(C)(=O)=O)cc1)c1ccccc1", "A": -4.329, "B": -7.156}